Results from ChEMBL document CHEMBL1132146, “Chemical stability and fate of the cytostatic drug ifosfamide and its N-dechloroethylated metabolites in acidic aqueous solutions” (J Med Chem, 1999).

Tested on: Mus musculus
Assay: acute toxicity against mouse after ip administration
Assay type: organism-based
Conditions: in vivo
In short: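 Single iv or ip injection; two female SD rats or male CD2F1 mice per dose group. Lethality and clinical signs of toxicity observed for 28 days to give an approximate LD50. Animals kept specific-pathogen-free with pellet diet and acidified water (pH 3) ad libitum.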

Structure (SMILES): Cl.NCCCl
- LD50: 2200 mg/kg
